Results of unrelated studies side by side (data: NIAID ChemDB).

All rows: growth or infection tests; agent: Candida albicans; read-out: EC50

An empty or dashed field is not shown. ECn is the concentration giving n% inhibition of infection, replication or growth. a–b is a range or a potency band. Lines come from different laboratories, so protocols vary.

structure | method | strain or isolate | result
Cc1nc2cc(Sc3n[nH]c(=S)s3)ccc2s1 | resazurin | ATCC 90028 | >50 µg/mL
COc1c2ccoc2cc2oc(=O)ccc12 | broth dilution | 105 | <400 µg/mL
Clc1ccc(COC(Cn2ccnc2)c2ccc(Cl)cc2Cl)c(Cl)c1 | broth dilution | ATCC 18804 | 110.8 µg/mL
C1=C(c2cc3ccccc3s2)C2CCN1CC2 | broth dilution | ATCC 10231 | >16 µg/mL
Clc1ccc(COC(Cn2ccnc2)c2ccc(Cl)cc2Cl)cc1 | agar diffusion / agar | 75 strains | >10 µg/mL
Cc1cc(O)cc2oc3cc(O)cc(O)c3c(=O)c12 | resazurin | SC5314 | >250 µM
C1CCC(C[C@@H]2CN3C(=NC[C@@H]3CC3CCCCC3)N2CCC23CC4CC(CC(C4)C2)C3)CC1 |  | ATCC 10231 | 3 µg/mL
COc1cc(O)c2c(c1)-c1cc(O)c(O)cc1COC2=O | resazurin | SC5314 | >250 µM
O=C(O)c1ccccc1O | broth dilution / turbidity | ATCC 10231 | 0.76 µM
COc1cc(O)c2c(=O)c3c(C)cc(O)cc3oc2c1 | resazurin | SC5314 | 149 µM
CC(C)(C)C1CCC(CN2C3=NC[C@H](C4CCCCC4)N3C[C@H]2CC2CCCCC2)CC1 |  | ATCC 10231 | 4.6 µg/mL
CCCCCCCCCCCCC#CCCCCC(=O)O | broth dilution | SC5314 | 4 µg/mL
CC(C)(C)C1CCC(CN2C3=NC[C@H](C4CCCCC4)N3C[C@H]2C2CCCCC2)CC1 |  | ATCC 10231 | 29.3 µg/mL
OC1(c2ccc(-c3ccccc3)cc2)CN2CCC1CC2 | broth dilution | ATCC 10231 | >16 µg/mL
CN[C@H]1CC[C@@H](c2ccc(Cl)c(Cl)c2)c2ccccc21 | broth dilution |  | 14–28 µg/mL
C[C@@H]1[C@H](O)[C@@H](C)/C=C/C=C/CC/C=C/C=C/C=C/C=C/C(O[C@H]2O[C@H](C)[C@@H](O)[C@H](N)[C@@H]2O)CC2O[C@](O)(CC(O)C(O)CCC(O)CC(O)CC(O)CC(=O)O[C@H]1C)CC(O)C2C(=O)O | agar diffusion / agar | 75 strains | <10 µg/mL
S=c1[nH]nc(Sc2ccc3c(Cl)ccnc3c2)s1 | resazurin | ATCC 90028 | >50 µg/mL
N[C@H]1CC(F)(F)C[C@H]1C(=O)O |  |  | 128 µg/mL
O=c1ccoc2ccc(Sc3n[nH]c(=S)s3)cc12 | resazurin | ATCC 90028 | >50 µg/mL
Clc1ccccc1C(c1ccccc1)(c1ccccc1)n1ccnc1 | agar diffusion / agar | 75 strains | <10 µg/mL
CC(C)OC(=O)c1ccc(C2=CN3CCC2CC3)cc1 | broth dilution | ATCC 10231 | >16 µg/mL
C=CC1C[C@H](N)[C@H](C(=O)O)C1 |  |  | 128 µg/mL
CCC[CH2][Sn]([CH2]CCC)([NH]c1ccccc1C(=O)O)[O]C(=O)c1ccccc1N | broth dilution | ATCC 18804 | 7.5 µg/mL
C1=C(c2ccc3ccccc3c2)C2CCN1CC2 | broth dilution | ATCC 10231 | >16 µg/mL
COc1cc(O)c2c(c1)C1=C[C@@H](O)[C@@H](O)C[C@]1(C)OC2=O | resazurin | SC5314 | >250 µM
O=c1ccc2cc3ccoc3cc2o1 | broth dilution | 105 | <400 µg/mL
CCOC(=O)c1ccc(C2=CN3CCC2CC3)cc1 | broth dilution | ATCC 10231 | >16 µg/mL
CC1CC[C@@H](C(=O)O)[C@H]1N |  |  | 128 µg/mL
CC(C)(C)C1CCC(CN2C3=NC[C@H](C4CCCCC4)N3C[C@@H]2CC2CCCCC2)CC1 |  | ATCC 10231 | 8.7 µg/mL
C=C=C1C[C@H](N)[C@H](C(=O)O)C1 |  |  | 128 µg/mL
C1CCC(C[C@H]2CN=C3N(CCC45CC6CC(CC(C6)C4)C5)[C@@H](CC4CCCCC4)CN32)CC1 |  | ATCC 10231 | 4.4 µg/mL
NC1C[C@H](N)[C@H](C(=O)O)C1 |  |  | 64 µg/mL
Cc1ccc(C(C)C)c(O)c1 | broth dilution / turbidity | ATCC 90028 | 1.1 µM
C1CCC(C[C@H]2CN=C3N2C[C@@H](C2CCCCC2)N3CCC23CC4CC(CC(C4)C2)C3)CC1 |  | ATCC 10231 | 9.4 µg/mL

Again, the opening 2 rows:

structure,method,strain or isolate,result
Cc1nc2cc(Sc3n[nH]c(=S)s3)ccc2s1,resazurin,ATCC 90028,>50 µg/mL
COc1c2ccoc2cc2oc(=O)ccc12,broth dilution,105,<400 µg/mL